Pooled drug test results. Numbers come from NIAID ChemDB, via PubChem.

Common to all: growth or infection tests; agent: Mycobacterium tuberculosis

Inhibition is in % at the dose shown (toxicity tests: loss of growth or viability). Lines come from different laboratories, so protocols vary. ECn is the concentration giving n% inhibition of infection, replication or growth. MIC50, MIC90 and the like: level of inhibition, or share of isolates inhibited. An empty or dashed field is not shown. MIC bound comes from a single tested concentration.

compound,method,strain or isolate,tested at,measure,setting,cells,value
Cc1cc(C(=O)N=Nc2c(O)[nH]c3ccc(Br)cc23)n[nH]1,resazurin,H37Rv,,MIC50,,,>50 µg/mL
O=C(O)c1cnccn1,,H37Ra,6.2 µg/mL,inhibition,,,0%
C[C@@H]1CN(CCn2c3ccccc3c3ccccc32)C[C@H](C)N1,,H37Rv,,MIC,,,30 µM
C[C@H]1COC2(CCN(c3nc(=O)c4cc(C(F)(F)F)cc(C(=O)O)c4s3)CC2)O1,resazurin,MDR_CHUV,,MIC99,,,0.002 µg/mL
CO[C@H]1/C=C/O[C@@]2(C)Oc3c(C)c(O)c4c(O)c(c5c(c4c3C2=O)NC2(CCN(CC(C)C)CC2)N=5)=NC(=O)/C(C)=C\C=C\[C@H](C)[C@H](O)[C@@H](C)[C@@H](O)[C@@H](C)[C@H](OC(C)=O)[C@@H]1C,,1 isolates (rpoB Ser531Tyr),,MIC,,,>8 µg/mL
CC(=O)NNc1nc(C)c(C(=O)NNC(=O)C(=O)Nc2ccc([N+](=O)[O-])cc2[N+](=O)[O-])s1,resazurin,H37Rv,6.25 µg/mL,inhibition,,,-9%
COC1=C(C)C(C)(O)c2[nH]c3ccc(OC)cc3c2C1=O,,H37Rv,,MIC,,,>128 µM
Cc1ccc(NC(=O)c2cccc3nc4ccccc4nc23)cc1C,,H37Rv 27294,,MIC,,,0.39 µg/mL
Cc1ccc(/C=C2\CCCc3ccccc3C2=O)cc1,broth dilution / resazurin,H37Rv,12.5 µg/mL,inhibition,,,0%
COc1cc2c(c(OC)c1O)C(=O)CC(c1ccc(O)cc1)O2,BACTEC,H37Rv,,MIC bound,,,>12.5 µg/mL
O=C(Oc1ccc(Cl)cc1C(=O)Nc1ccc(Cl)c(Cl)c1)c1cnccn1,,multidrug resistant Praha 1,,MIC,21 d,,0.5 µM
COc1cccc(NC(=O)c2cccc3nc4ccccc4nc23)c1,,H37Rv 27294,,MIC,,,0.39 µg/mL
CCCSc1ncnc2ccccc12,,CNCTC TBC1/47,,MIC,,,250 µM
CN1C(=O)[C@H]2N(N(C)C1=O)[C@]1(Br)C(=O)N(C)C(=O)[C@]21Br,BACTEC,H37Rv,,MIC bound,,,>12.8 µg/mL
Cc1ccc(NN2C(N)=C(C#N)C(c3cc4cc(Cl)ccc4nc3Cl)C3=C2CC(C)(C)CC3=O)cc1,agar,H37Rv,,MIC,,,72 µg/mL
CCN(CC)c1ccc(N=C2C=C(C(=O)Nc3cccc(Cl)c3)C(=O)c3ccccc32)c(C)c1,BACTEC,H37Rv,12.5 µg/mL,inhibition,,,12%
CC(C)N1CCN(c2nc(=O)c3cc(C(F)(F)F)cc(C(=O)O)c3s2)CC1,resazurin,H37Rv,,MIC,,,0.0019 µg/mL
O=C(N/N=C/c1ccc([N+](=O)[O-])cc1[N+](=O)[O-])c1ccncc1,resazurin,ATTC 27294,,MIC,,,5 µg/mL
COc1cc(C=O)cc2c1[nH]c1ccccc12,,H37Rv,,MIC,,,>128 µM
CO[C@H]1/C=C/O[C@@]2(C)Oc3c(C)c(O)c4c(O)c(c5c(c4c3C2=O)NC2(CCN(CC(C)C)CC2)N=5)=NC(=O)/C(C)=C\C=C\[C@H](C)[C@H](O)[C@@H](C)[C@@H](O)[C@@H](C)[C@H](OC(C)=O)[C@@H]1C,,3181-4,,MBC,,,0.125 µg/mL
CCN(CC)N(C)C(=O)COc1cc2c(O)c3c(O)c(C)c4c(c13)C(=O)[C@@](C)(O/C=C/[C@H](OC)[C@@H](C)[C@@H](OC(C)=O)[C@H](C)[C@H](O)[C@H](C)[C@@H](O)[C@@H](C)/C=C/C=C(/C)C(=O)N2)O4,,,,EC50,,,0.37 µg/mL
O=C(Oc1cc(Cl)ccc1C(=O)Nc1ccc(C(F)(F)F)cc1)c1cnccn1,,multidrug resistant 7357/1998,,MIC,21 d,,0.5 µM
COC(=O)NC1C(=O)O[C@H]([C@H]2OC2(C)C)C1(C)C,BACTEC,H37Rv,12.5 µg/mL,inhibition,,,-4%
CCCCN1CCN(c2nc(=O)c3cc(C(F)(F)F)cc(C(=O)O)c3s2)CC1,resazurin,H37Rv,,MIC,,,0.0019 µg/mL
O=C(N=Nc1c(O)[nH]c2ccccc12)c1ccc(Cl)cc1,resazurin,H37Ra,,MIC50,,,>50 µg/mL
O=C(Nc1cccc(F)c1)c1cccc2nc3ccccc3nc12,,H37Rv 27294,,MIC,,,0.78 µg/mL
O=C1c2ccccc2-c2nccc3c2c1nc1ccccc13,BACTEC,H37Rv,,MIC,,VERO,0.5 µg/mL
Cn1c(C(=O)N=Nc2c(O)[nH]c3ccc(Br)cc23)cc2ccccc21,resazurin,H37Ra,,MIC50,,,>50 µg/mL
O=C(Nc1ccncc1)c1cccc2nc3ccccc3nc12,,H37Rv 27294,,MIC,,,1.56 µg/mL
COCCNC(=O)C1C(=O)N(CCOC)C(=O)/C1=N/N,BACTEC,H37Rv,,MIC,,,≥12.8 µg/mL
O=C(NNC(=O)c1ccc(Cl)c([N+](=O)[O-])c1)c1ccncc1,resazurin,ATTC 27294,,MIC,,,0.5 µg/mL
COC(=O)c1cc(OC)c2[nH]c3ccccc3c2c1,,H37Rv,,MIC,,,69 µM
O=C(NCCN1CCN2Cc3[nH]c4ccccc4c3CC2C1)c1ccc(Cl)cc1,resazurin,H37Rv,,MIC bound,,,>6.25 µg/mL
Cc1ccc(/C=C2\Cc3ccccc3C2=O)cc1,broth dilution / resazurin,H37Rv,12.5 µg/mL,inhibition,,,75%
CC[C@H](C)[C@@H]1NC(=O)[C@@H]2CCCN2C(=O)[C@@H](CC(C)C)OC(=O)CCNC(=O)[C@@H](C)N(C)C(=O)[C@H](C(C)C)N(C)C1=O,BACTEC,H37Rv,,MIC bound,,,>12.5 µg/mL
O=C(N=Nc1c(O)[nH]c2ccc([N+](=O)[O-])cc12)c1cccc([N+](=O)[O-])c1,resazurin,H37Ra,,MIC50,,,>50 µg/mL
CCn1cc(C(=O)O)c(=O)c2cc(F)c(N3CCNCC3)cc21,,21 strains,,MIC90,,,8 µg/mL
O=C(N=Nc1c(O)[nH]c2ccccc12)c1ccc(O)cc1O,resazurin,H37Rv,,MIC50,,,>50 µg/mL
COc1cccc(/C=C2\COc3ccccc3C2=O)c1,broth dilution / resazurin,H37Rv,,EC50,,,<0.2 µg/mL
NNC(=O)c1ccncc1,,H37Rv 27294,,MIC,,,0.19 µg/mL
COc1cc(CO)cc2c1[nH]c1ccccc12,,H37Rv,,MIC,,,>128 µM
c1ccc(CSc2ncnc3ccccc23)cc1,,CNCTC TBC1/47,,MIC,,,63 µM
O=C(Nc1cccc([N+](=O)[O-])c1)c1cccnc1Cl,,H37Rv,,MIC,,,>20 µg/mL
c1ccc(CCSc2ncnc3ccccc23)cc1,,CNCTC TBC1/47,,MIC,,,63 µM
COc1cc(C)cc2c3c([nH]c12)C(=O)c1ccccc1C3=O,,H37Rv,,MIC,,,>128 µM
Cc1ccc2[nH]c(=O)c3cccnc3[n+]2c1,,H37Rv,,MIC,,,>20 µg/mL
NC(=O)c1cnccn1,,H37Rv 331/88,,MIC,21 d,,>1000 µM
CSC(=S)N/N=C(\Cc1ccccc1)c1ccccn1,BACTEC,H37Rv,128 µg/mL,inhibition,,,100%
O=C(N=Nc1c(O)[nH]c2ccccc12)c1ccc([N+](=O)[O-])cc1Cl,resazurin,H37Ra,,MIC50,,,>50 µg/mL
O=C(CNNc1ccc([N+](=O)[O-])cn1)Nc1ccc(S(=O)(=O)c2ccc(NC(=O)CNNc3ccc([N+](=O)[O-])cn3)cc2)cc1,BACTEC,H37Rv,,MIC bound,,,>12.5 µg/mL
COc1cc(C(=O)O)cc2c1[nH]c1ccccc12,,H37Rv,,MIC,,,>128 µM
O=C(Nc1ccc(Br)cc1)c1cccnc1Cl,,H37Rv,,MIC,,,>20 µg/mL
O=C(Oc1ccc(Cl)cc1C(=O)Nc1cccc(C(F)(F)F)c1)c1cnccn1,,multidrug resistant Praha 1,,MIC,21 d,,1 µM
O=c1oc2ccc(Cl)cc2c(=O)n1-c1cc(Cl)ccc1[N+](=O)[O-],,H37Rv,6.25 µg/mL,inhibition,,,-12%
O=C(NN=C1CCCCC1)c1ccncc1,,Rifampicin-resistant,,MIC,,,0.05 µg/mL
Cc1ccc(NC(=O)c2cccnc2Cl)nc1,,H37Rv,,MIC,,,>20 µg/mL
CCCCSc1ncnc2ccccc12,,CNCTC TBC1/47,,MIC,,,63 µM
CSC1=NC2(CC2c2ccccc2)C(=O)N1,resazurin,H37Rv,,MIC bound,,,>6.25 µg/mL
O=C(N/N=C/c1cccc([N+](=O)[O-])c1)c1ccncc1,resazurin,ATTC 27294,,MIC,,,0.5 µg/mL
O=C1/C(=C/c2cccc(Br)c2)COc2ccccc21,broth dilution / resazurin,H37Rv,,EC50,,,0.56 µg/mL
Cc1ccc(N2C(=O)c3cccc([N+](=O)[O-])c3C2=O)c(O)c1,resazurin,H37Rv,,MIC50,,,>50 µg/mL
CO[C@H]1/C=C/O[C@@]2(C)Oc3c(C)c(O)c4c(O)c(cc(OCC(=O)N(C)N5CCCCC5)c4c3C2=O)NC(=O)/C(C)=C\C=C\[C@H](C)[C@H](O)[C@@H](C)[C@@H](O)[C@@H](C)[C@H](OC(C)=O)[C@@H]1C,,,,EC50,,,9.09 µg/mL
CO[C@H]1/C=C/O[C@@]2(C)Oc3c(C)c(O)c4c(O)c(c(/C=N/N5CCN(C6CCCC6)CC5)c(O)c4c3C2=O)NC(=O)/C(C)=C\C=C\[C@H](C)[C@H](O)[C@@H](C)[C@@H](O)[C@@H](C)[C@H](OC(C)=O)[C@@H]1C,,L212,,MIC,,,0.1 µg/mL
O=C(Nc1ccccc1)c1cc(S(=O)(=O)N2CCNNC2=O)c(S)cc1Cl,resazurin,H37Rv,6.25 µg/mL,inhibition,,,1%
O=C(Oc1ccc(Br)cc1C(=O)Nc1ccc(C(F)(F)F)cc1)c1cnccn1,,multidrug resistant 9449/2006,,MIC,14 d,,0.5 µM
CCCN(C(=O)COc1cc2c(O)c3c(O)c(C)c4c(c13)C(=O)[C@@](C)(O/C=C/[C@H](OC)[C@@H](C)[C@@H](OC(C)=O)[C@H](C)[C@H](O)[C@H](C)[C@@H](O)[C@@H](C)/C=C/C=C(/C)C(=O)N2)O4)N1CCOCC1,,,,EC50,,,0.37 µg/mL
Cc1nc(Cl)nc2c1C(=O)Nc1ccccc1N2,BACTEC,H37Rv,,MIC bound,,,>12.5 µg/mL
CN(C)c1ccc(/C=C2\COc3ccccc3C2=O)cc1,broth dilution / resazurin,H37Rv,10 µg/mL,inhibition,,,0%
CCCc1cc(=O)oc2c3c(c4c(c12)OC(C)(C)CC4)O[C@@H](C)[C@H](C)[C@H]3O,BACTEC,H37Rv,,MIC bound,,,>12.5 µg/mL
C=CCSc1ncnc2ccccc12,,CNCTC TBC1/47,,MIC,,,250 µM
CCOC(=O)C(NC(=O)c1ccccc1)(N1CCN(c2cc3c(cc2F)c(=O)c(C(=O)O)cn3C2CC2)CC1)C(F)(F)F,resazurin,H37Rv,,MIC,,,0.78 µg/mL
O=C1CCCCC/C1=C\c1ccc(Br)cc1,broth dilution / resazurin,H37Rv,12.5 µg/mL,inhibition,,,3%
CC1(C)CC(=O)C2=C(C1)N(Nc1ccccc1)C(N)=C(C#N)C2c1cc2ccccc2nc1Cl,agar,H37Rv,,MIC,,,8 µg/mL
Cc1cccc(/C=C2\CCCc3ccccc3C2=O)c1,broth dilution / resazurin,H37Rv,12.5 µg/mL,inhibition,,,19%
O=C[C@H](O)[C@@H](O)[C@H](O)[C@H](O)CO,resazurin,H37Rv,6.25 µg/mL,inhibition,,,9%
CC1(C)CC(=O)C2=C(C1)N(Nc1ccccc1)C(N)=C(C#N)C2c1cc2cc(Cl)ccc2nc1Cl,agar,H37Rv,,MIC,,,5 µg/mL
C[C@H]1CN[C@@H]2[C@@H](C)[C@H]3[C@@H](C[C@H]4[C@@H]5CC[C@H]6C[C@@H](N)CC[C@]6(C)[C@H]5CC[C@]34C)O[C@@]2(O)C1,BACTEC,H37Rv,12.8 µg/mL,inhibition,,,25%
CCCN(CCC)N(CCC)C(=O)COc1cc2c(O)c3c(O)c(C)c4c(c13)C(=O)[C@@](C)(O/C=C/[C@H](OC)[C@@H](C)[C@@H](OC(C)=O)[C@H](C)[C@H](O)[C@H](C)[C@@H](O)[C@@H](C)/C=C/C=C(/C)C(=O)N2)O4,,,,EC50,,,0.09 µg/mL
Cc1c(-c2ccc(C(=N)N)cc2)oc(-c2ccc(C(=N)N)cc2)c1C,BACTEC,H37Rv,12.5 µg/mL,inhibition,,,65%
Cc1ccc2nc(Cl)c(C3C(C#N)=C(N)N(Nc4ccc(Cl)cc4)C4=C3C(=O)CC(C)(C)C4)cc2c1,agar,H37Rv,,MIC,,,15 µg/mL

8 of the rows above, restated:

compound	method	strain or isolate	tested at	measure	setting	cells	value
O=C(N=Nc1c(O)[nH]c2ccccc12)c1ccc([N+](=O)[O-])cc1Cl	resazurin	H37Ra		MIC50			>50 µg/mL
O=C(Nc1ccncc1)c1cccc2nc3ccccc3nc12		H37Rv 27294		MIC			1.56 µg/mL
NC(=O)c1cnccn1		H37Rv 331/88		MIC	21 d		>1000 µM
Cc1ccc(N2C(=O)c3cccc([N+](=O)[O-])c3C2=O)c(O)c1	resazurin	H37Rv		MIC50			>50 µg/mL
CO[C@H]1/C=C/O[C@@]2(C)Oc3c(C)c(O)c4c(O)c(c5c(c4c3C2=O)NC2(CCN(CC(C)C)CC2)N=5)=NC(=O)/C(C)=C\C=C\[C@H](C)[C@H](O)[C@@H](C)[C@@H](O)[C@@H](C)[C@H](OC(C)=O)[C@@H]1C		1 isolates (rpoB Ser531Tyr)		MIC			>8 µg/mL
O=C(NCCN1CCN2Cc3[nH]c4ccccc4c3CC2C1)c1ccc(Cl)cc1	resazurin	H37Rv		MIC bound			>6.25 µg/mL
O=C(Oc1ccc(Br)cc1C(=O)Nc1ccc(C(F)(F)F)cc1)c1cnccn1		multidrug resistant 9449/2006		MIC	14 d		0.5 µM
CCn1cc(C(=O)O)c(=O)c2cc(F)c(N3CCNCC3)cc21		21 strains		MIC90			8 µg/mL